Biological target: collagenase A (ColA) (Clostridium perfringens, UniProt P43153)
Assay type: biochemical, C. perfringens

Chains of the proteins cited; added tags and fusions are not shown. Residues count along the entry.
UniProt P43153, 87-1104 limits assumed: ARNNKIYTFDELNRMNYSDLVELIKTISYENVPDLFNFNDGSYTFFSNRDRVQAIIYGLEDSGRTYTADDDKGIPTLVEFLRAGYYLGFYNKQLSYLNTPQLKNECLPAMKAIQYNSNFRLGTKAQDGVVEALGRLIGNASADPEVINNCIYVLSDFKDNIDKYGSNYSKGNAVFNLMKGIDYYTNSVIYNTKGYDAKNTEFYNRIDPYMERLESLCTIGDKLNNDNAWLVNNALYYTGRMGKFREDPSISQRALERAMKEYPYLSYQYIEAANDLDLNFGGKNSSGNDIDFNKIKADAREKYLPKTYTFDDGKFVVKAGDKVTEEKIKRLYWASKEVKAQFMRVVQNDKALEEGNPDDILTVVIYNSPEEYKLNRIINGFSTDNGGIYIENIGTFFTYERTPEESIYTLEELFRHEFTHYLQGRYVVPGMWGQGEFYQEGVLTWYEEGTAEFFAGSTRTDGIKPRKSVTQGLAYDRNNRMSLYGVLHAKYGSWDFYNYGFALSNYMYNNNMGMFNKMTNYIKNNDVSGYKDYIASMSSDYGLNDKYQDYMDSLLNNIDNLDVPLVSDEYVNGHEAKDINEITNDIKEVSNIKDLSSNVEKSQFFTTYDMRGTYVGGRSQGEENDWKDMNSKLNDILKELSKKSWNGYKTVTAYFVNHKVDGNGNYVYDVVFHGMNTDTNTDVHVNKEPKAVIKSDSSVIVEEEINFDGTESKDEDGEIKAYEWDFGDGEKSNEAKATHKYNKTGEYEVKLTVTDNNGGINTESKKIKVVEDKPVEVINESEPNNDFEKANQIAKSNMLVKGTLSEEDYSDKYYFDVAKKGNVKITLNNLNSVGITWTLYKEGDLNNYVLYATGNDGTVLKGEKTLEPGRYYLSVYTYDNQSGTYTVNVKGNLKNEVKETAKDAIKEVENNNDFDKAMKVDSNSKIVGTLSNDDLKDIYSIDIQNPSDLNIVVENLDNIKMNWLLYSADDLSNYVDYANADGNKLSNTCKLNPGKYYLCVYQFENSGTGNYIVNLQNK

## COc1cc(/C=C/C(=O)O)ccc1O [ferulic acid]
  inhibitory effect on ColA (in words): low effects

Source: article PMC9781087, “Discovery of New Microbial Collagenase Inhibitors” (Life, 2022)
